Measured values from several laboratories, pooled; numbers as filed in NIAID ChemDB.

All rows: tests in culture; organism: HIV-1

Blank or dashed fields: not listed here.

{"compound": "CCC(C)Oc1cc(N)nc(S(=O)(=O)c2cccc(Cl)c2)n1", "method": "cytopathic effect / MTT", "strain or isolate": "IIIB", "read-out": "EC50", "cells": "MT-4", "result": ">80 µM"}
{"compound": "COc1ccc(/C=C/C(=O)/C=C/c2ccc(OC)c(OC)c2)cc1OC", "method": "cytopathic effect / MTT", "read-out": "EC50", "cells": "MT-4", "result": ">4.1 µM"}
{"compound": "Cc1cn([C@H]2C[C@H](N=[N+]=[N-])[C@@H](CO)O2)c(=O)[nH]c1=O", "method": "p24 / ELISA", "strain or isolate": "SC422661.8", "read-out": "EC50", "cells": "TZM-bl", "result": "0.09834 µM"}
{"compound": "CN(C)C=Nc1ccn([C@H]2CC[C@@H](CO)O2)c(=O)n1", "method": "cytopathic effect / XTT", "strain or isolate": "RF", "read-out": "EC50", "cells": "CEM + CEM-SS", "result": "1 µg/mL"}
{"compound": "Cc1ccnc2c1NC(=O)c1cccnc1N2C1CC1", "method": "p24", "strain or isolate": "BaL", "read-out": "EC50", "cells": "PBMC", "result": "0.1 µM"}
{"compound": "Cc1cc(S(N)(=O)=O)ccc1NC(=O)COc1ccc(Cl)cc1C(=O)c1cc(Cl)cc(C#N)c1", "method": "β-galactosidase", "strain or isolate": "NNRTI-resistant (RT V106M)", "read-out": "EC50", "cells": "MAGI", "changes": "RT-V106M", "result": "0.0013 µM"}
{"compound": "COc1cc(CN2C(=O)N(Cc3cccc(C(=O)Nc4cnccn4)c3)[C@H](Cc3ccccc3)[C@H](O)[C@@H](O)[C@H]2Cc2ccccc2)cc(OC)c1", "strain or isolate": "RF", "read-out": "EC50", "cells": "MT-2", "result": "<0.7431 µM"}
{"compound": "CCC(C)Oc1cc(=O)[nH]c(Sc2ccc(Cl)cc2)n1", "method": "cytopathic effect / MTT", "strain or isolate": "IIIB", "read-out": "EC50", "cells": "MT-4", "result": "106 µM"}
{"compound": "CCn1c(-n2[nH]c(=O)c3ccccc3c2=O)nc2ccccc2c1=O", "method": "visual reading", "strain or isolate": "IIIB", "read-out": "EC50", "cells": "MT-4", "result": "100 µM"}
{"compound": "O=c1[nH]cnc2c1ncn2[C@H]1CC[C@@H](CO)O1", "method": "p24", "strain or isolate": "rHXB2", "read-out": "EC95", "cells": "MT-4", "result": "25 µM"}
{"compound": "Nc1cccc(CN2C(=O)N(Cc3cccc(C(=O)Nc4cnccn4)c3)[C@H](Cc3ccccc3)[C@H](O)[C@@H](O)[C@H]2Cc2ccccc2)c1", "strain or isolate": "RF", "read-out": "EC50", "cells": "MT-2", "result": "<0.0202 µM"}
{"compound": "O=C1/C(=C/c2ccc(O)c(O)c2)CNC/C1=C\\c1ccc(O)c(O)c1", "method": "cytopathic effect / MTT", "read-out": "EC50", "cells": "MT-4", "result": ">21 µM"}
{"compound": "Cc1cn([C@H]2C[C@H](N=[N+]=[N-])[C@@H](CO)O2)c(=O)[nH]c1=O", "method": "cytopathic effect / MTT", "strain or isolate": "IIIB", "read-out": "EC90", "cells": "MT-4", "result": "0.029 µM"}
{"compound": "Cc1cc(=O)c2ccc(N=C=S)cc2o1", "method": "p24 / ELISA", "strain or isolate": "NL4-3", "read-out": "EC50", "cells": "PBMC", "result": "0.16 µM"}
{"compound": "CCC(C)Oc1cc(N)nc(Sc2ccc(C)cc2)n1", "method": "cytopathic effect / MTT", "strain or isolate": "IIIB", "read-out": "EC50", "cells": "MT-4", "result": ">300 µM"}
{"compound": "Cc1cn([C@H]2C[C@H](N=[N+]=[N-])[C@@H](CO)O2)c(=O)[nH]c1=O", "method": "p24", "strain or isolate": "BaL", "read-out": "EC50", "cells": "Macrophage + Monocytes/macrophages", "changes": "RT-V106A", "result": "0.06 µM"}
{"compound": "O=c1[nH]n(-c2nc3ccccc3c(=O)n2-c2ccncc2)c(=O)c2ccccc12", "method": "visual reading", "strain or isolate": "IIIB", "read-out": "EC50", "cells": "MT-4", "result": "100 µM"}
{"compound": "Cc1cn([C@H]2C[C@H](N=[N+]=[N-])[C@@H](CO)O2)c(=O)[nH]c1=O", "method": "p24", "strain or isolate": "G890-1 Clinical isolate ZDV-resistant", "read-out": "EC50", "cells": "PBMC", "changes": "RT-K20R M41L D67N T69N K70R L210W T215Y", "result": ">3.2 µM"}
{"compound": "Cc1cn([C@H]2C[C@H](N=[N+]=[N-])[C@@H](COP(=O)(OCCS[C@@H]3O[C@H](CO)[C@@H](O)[C@H](O)[C@H]3O)OCCS[C@@H]3O[C@H](CO)[C@@H](O)[C@H](O)[C@H]3O)O2)c(=O)[nH]c1=O", "method": "RT activity", "strain or isolate": "LAI", "read-out": "EC50", "cells": "MM + M/M", "result": "0.4 µM"}
{"compound": "CC(C)=CCN1Cc2cccc3[nH]c(=S)n(c23)C[C@@H]1C", "method": "p24", "strain or isolate": "rHXB2", "read-out": "EC50", "cells": "MT-4", "result": "<0.1 µM"}
{"compound": "CCNc1nc(N(C)C)nc2c1[nH]c[n+]2C[C@@H](C)OCP(=O)(O)O", "method": "cytopathic effect / MTT", "strain or isolate": "IIIB", "read-out": "EC50", "cells": "MT-4", "result": "6.23 ± 4.48 µg/mL"}
{"compound": "COc1cc(/C=C/C(=O)/C=C/c2ccc(O)c(OC)c2)ccc1O", "method": "cytopathic effect / MTT", "read-out": "EC50", "cells": "MT-4", "result": ">1.4 µM"}
{"compound": "COC(=O)c1cc2c(c(OC)c1-c1ccc(N(C)C)cc1)OCO2", "method": "antigen", "strain or isolate": "NL4-3", "read-out": "EC50", "cells": "C8166", "changes": "V108I", "result": "13.01 µM"}
{"compound": "Cc1cn([C@H]2C[C@H](N=[N+]=[N-])[C@@H](CO)O2)c(=O)[nH]c1=O", "method": "visual reading", "strain or isolate": "IIIB", "read-out": "EC50", "cells": "MT-4", "result": "0.0012 µM"}
{"compound": "CC(C)(C)NC(=O)[C@@H]1CN(Cc2cccnc2)CCN1C[C@@H](O)C[C@@H](Cc1ccccc1)C(=O)N[C@H]1c2ccccc2C[C@H]1O", "method": "cytopathic effect / MTT", "strain or isolate": "NL4-3 WT", "read-out": "EC50", "cells": "MT-4", "result": "0.041 µM"}
{"compound": "C[C@H](C[n+]1c[nH]c2c(NCCCC3CCCCC3)nc(N)nc21)OCP(=O)(O)O", "method": "cytopathic effect / MTT", "strain or isolate": "IIIB", "read-out": "EC50", "cells": "MT-4", "result": "4.15 ± 3 µg/mL"}
{"compound": "Cc1ccc(NC(=O)c2cccc(CN3C(=O)N(Cc4cccc(N)c4)[C@H](Cc4ccccc4)[C@H](O)[C@@H](O)[C@H]3Cc3ccccc3)c2)nc1", "strain or isolate": "RF", "read-out": "EC50", "cells": "MT-2", "result": "<0.0165 µM"}
{"compound": "COC(=O)[C@H](C)NP(=O)(OC[C@@H]1C=C[C@H](n2cc(C)c(=O)[nH]c2=O)O1)Oc1ccc(Br)cc1", "method": "p24", "strain or isolate": "Y270-7 Clinical isolate ZDV-resistant", "read-out": "EC50", "cells": "PBMC", "changes": "RT-M41W Y188L T215N", "result": "0.009 µM"}
{"compound": "COc1cccc(CN2C(=O)N(Cc3cccc(C(=O)Nc4cnccn4)c3)[C@H](Cc3ccccc3)[C@H](O)[C@@H](O)[C@H]2Cc2ccccc2)c1", "strain or isolate": "RF", "read-out": "EC50", "cells": "MT-2", "result": "<0.0912 µM"}
{"compound": "CC(=O)OC[C@H]1O[C@@H](SCCOP(=O)(OCCS[C@@H]2O[C@H](CO)[C@@H](O)[C@H](O)[C@H]2O)OC[C@H]2O[C@@H](n3cc(C)c(=O)[nH]c3=O)C[C@@H]2N=[N+]=[N-])[C@H](OC(C)=O)[C@@H](OC(C)=O)[C@@H]1OC(C)=O", "method": "RT activity", "strain or isolate": "LAI", "read-out": "EC50", "cells": "CEM + CEM-SS", "result": "0.001 µM"}
{"compound": "CC(C)(C)NC(=O)[C@@H]1C[C@@H]2CCCC[C@@H]2CN1C[C@@H](O)[C@H](Cc1ccccc1)NC(=O)[C@H](CC(N)=O)NC(=O)c1ccc2ccccc2n1", "method": "p24", "strain or isolate": "JR-FL R5", "read-out": "EC50", "cells": "PBMC", "result": "0.006 µM"}
{"compound": "CC(=O)OC[C@H]1O[C@@H](SCCOP(=O)(OCS[C@@H]2O[C@H](COC(C)=O)[C@@H](OC(C)=O)[C@H](OC(C)=O)[C@H]2OC(C)=O)OC[C@H]2O[C@@H](n3cc(C)c(=O)[nH]c3=O)C[C@@H]2N=[N+]=[N-])[C@H](OC(C)=O)[C@@H](OC(C)=O)[C@@H]1OC(C)=O", "method": "RT activity", "strain or isolate": "LAI", "read-out": "EC50", "cells": "CEM + CEM-SS", "result": "0.03 µM"}
{"compound": "Cc1cn([C@H]2C[C@H](N=[N+]=[N-])[C@@H](CO)O2)c(=O)[nH]c1=O", "method": "p24", "strain or isolate": "LAI WT", "read-out": "EC50", "cells": "MT-2", "result": "0.031 µM"}
{"compound": "CCC(C)Oc1cc(=O)[nH]c(S(=O)(=O)c2ccccc2)n1", "method": "cytopathic effect / MTT", "strain or isolate": "IIIB", "read-out": "EC50", "cells": "MT-4", "result": ">109 µM"}
{"compound": "O=c1[nH]n(-c2nc3ccccc3c(=O)n2-c2ccccc2)c(=O)c2ccccc12", "method": "visual reading", "strain or isolate": "IIIB", "read-out": "EC50", "cells": "MT-4", "result": "100 µM"}
{"compound": "C[C@H](CC1CNC2C1OC(N)CN2N)OCP(=O)(O)O", "method": "cytopathic effect / MTT", "strain or isolate": "IIIB", "read-out": "EC50", "cells": "MT-4", "result": ">100 µg/mL"}
{"compound": "N#CCNC(=O)c1cccc(CN2C(=O)N(Cc3cccc(C(=O)NCC(=O)O)c3)[C@H](Cc3ccccc3)[C@H](O)[C@@H](O)[C@H]2Cc2ccccc2)c1", "strain or isolate": "RF", "read-out": "EC50", "cells": "MT-2", "result": "<0.741 µM"}
{"compound": "NC(=O)NO", "method": "p24", "strain or isolate": "IIIB", "read-out": "EC50", "cells": "PBMC", "result": ">25 µM"}
{"compound": "Cc1ccnc2c1NC(=O)c1cccnc1N2C1CC1", "method": "cytopathic effect / MTT", "strain or isolate": "IIIB-R (RT-Y181C)", "read-out": "EC50", "cells": "MT-4", "changes": "RT-Y181C", "result": ">224 µM"}
{"compound": "Cc1cn([C@H]2C[C@H](N=[N+]=[N-])[C@@H](CO)O2)c(=O)[nH]c1=O", "method": "p24", "strain or isolate": "rA17", "read-out": "EC50", "cells": "MT-4", "result": "<0.025 µM"}
{"compound": "CC(C)=CCOc1cc(NC(=S)c2ccoc2C)ccc1Cl", "method": "luminescence", "strain or isolate": "IIIB", "read-out": "EC50", "cells": "TZM-bl", "changes": "A-17-resistant", "result": ">10 µM"}
{"compound": "CCO/N=C(\\c1ccc(Br)cc1)C1CCN(C2(C)CCN(C(=O)c3c(C)cc[n+]([O-])c3C)CC2)CC1", "method": "p24", "strain or isolate": "NL4-3 X4", "read-out": "EC50", "cells": "PBMC", "result": ">1 µM"}
{"compound": "O=C1/C(=C/c2ccc(O)c(O)c2)Cc2ccccc21", "method": "cytopathic effect / MTT", "read-out": "EC50", "cells": "MT-4", "result": ">5.5 µM"}
{"compound": "COC(=O)N[C@@H](Cc1c[nH]c2ccccc12)C(=O)NCCCC[C@@H](CO)N(CC(C)C)S(=O)(=O)c1ccc(N)cc1", "method": "cytopathic effect / MTT", "strain or isolate": "RF2802 (PR-V82F I84V)", "read-out": "EC50", "cells": "MT-4", "changes": "PR-V82F I84V", "result": "0.122 µM"}
{"compound": "O=c1[nH]cnc2c1ncn2[C@H]1CC[C@@H](CO)O1", "strain or isolate": "IIIB", "read-out": "EC50", "cells": "MT-4", "result": "8.4 µM"}

A second listing of 4 rows from above:

compound	method	strain or isolate	read-out	cells	changes	result
Cc1cn([C@H]2C[C@H](N=[N+]=[N-])[C@@H](CO)O2)c(=O)[nH]c1=O	cytopathic effect / MTT	IIIB	EC90	MT-4	-	0.029 µM
CN(C)C=Nc1ccn([C@H]2CC[C@@H](CO)O2)c(=O)n1	cytopathic effect / XTT	RF	EC50	CEM + CEM-SS	-	1 µg/mL
COc1cc(/C=C/C(=O)/C=C/c2ccc(O)c(OC)c2)ccc1O	cytopathic effect / MTT	-	EC50	MT-4	-	>1.4 µM
Cc1cn([C@H]2C[C@H](N=[N+]=[N-])[C@@H](CO)O2)c(=O)[nH]c1=O	p24 / ELISA	SC422661.8	EC50	TZM-bl	-	0.09834 µM

ECn is the concentration giving n% inhibition of infection, replication or growth. Conditions beyond the fields shown may differ between rows.